The test system of the series is NC(=O)c1ccc[n+]([C@@H]2O[C@H](COP(=O)(O)OP(=O)(O)OC[C@H]3O[C@@H](n4cnc5c(N)ncnc54)[C@H](O)[C@@H]3O)[C@@H](O)[C@H]2O)c1. Briefly: purified protein. To be noted: pH 7.5; 23.0 °C.

On to “Lart1 (Legionella pneumophila subsp. pneumophila str. Philadelphia 1)”, for which the Km is 1.57 (95% CI 1.26, 1.95) μM.

(Values after paper PMC7949102 (The Journal of Biological Chemistry, 2021).)
